Molecules are shown by their SMILES.

The subject of the experiment is p6/Gluc[Y1320H]. Description: Dose titration against mutant replicon p6/Gluc[Y1320H].

As for `COc1cc(O)cc(O)c1C(=O)c1ccccc1` [isocotoin, 4-benzoyl-5-methoxybenzene-1,3-diol], the “sensitivity of p6/Gluc[Y1320H], in words” value was “higher sensitivity to isocotoin than to ribavirin”.

For the origin of these results see patent US20220362276A1, “Small Molecule Inhibitors of Viral Replication” (The Trustees of Princeton University, priority 2019, published 2022).
